Pooled drug test results. Numbers come from NIAID ChemDB, via PubChem.

All rows: enzyme or target tests

Conditions beyond the fields shown may differ between rows.

smiles	read-out	strain or isolate	target	organism	dose	result
CSc1ncc(C(=O)NC2CC2)c(Nc2ccc3cn[nH]c3c2)n1	IC50	-	Reverse transcription	Hepatitis B virus	-	<1 µg/mL
O=C(O)c1sc(-c2ccccc2)cc1N(C(=O)c1ccc(Cl)cc1Cl)C(CO)CO	IC50	-	NS3 ATPase	Hepatitis C virus	-	<5 µM
C=CC1CC1(NC(=O)[C@@H]1C[C@@H](OC(=O)Nc2c(C)cccc2C)CN1C(=O)[C@@H](NC(=O)OC(C)(C)C)C(C)(C)C)C(=O)NS(=O)(=O)C1CC1	IC50	BMS/H77C/J416S	NS3/NS4A protease	Hepatitis C virus	-	1–10 µM
O=C(O)C(Cc1ccccc1)N(Cc1cc(-c2nccs2)cs1)C(=O)c1ccc(Cl)cc1Cl	IC50	-	RNA-dependent RNA polymerase	Hepatitis C virus	-	<5 µM
O=C(c1ccc2c(c1)nc(-c1cc3ccc(-c4ccccc4-c4ccccc4)nc3cc1F)n2C1CCCCC1)N1CCC(O)CC1	inhibition	-	NS5B polymerase	Hepatitis C virus	100 µM	88.64%
C=CC1CC1(NC(=O)[C@@H]1C[C@@H](OC(=O)Nc2ccc(F)c(F)c2F)CN1C(=O)[C@@H](NC(=O)OC(C)(C)C)C(C)(C)C)C(=O)NS(=O)(=O)C1CC1	IC50	BMS/H77C/J416S	NS3/NS4A protease	Hepatitis C virus	-	0.1–1 µM
Cc1cc(C)c(S(=O)(=O)Nc2cc(-c3ccccc3)sc2C(=O)O)c(C)c1	IC50	-	NS3 ATPase	Hepatitis C virus	-	<5 µM
O=C(O)C(Cc1ccccc1)N(Cc1ccc(-c2ccc(Cl)s2)o1)C(=O)c1ccc(Cl)cc1Cl	IC50	-	RNA-dependent RNA polymerase	Hepatitis C virus	-	<5 µM
CCC(C)[C@H](NC(=O)[C@@H](NC(=O)CCC(=O)O)C1CCCCC1)C(=O)N[C@@H](CCC(=O)O)C(=O)NC1(C(=O)O)CC1	inhibition	-	Nonstructural protein 3 NTPase/helicase	Hepatitis C virus	83.5 µM	14%
CN(C(=O)c1cc2ccccc2s1)c1cc(-c2ccccc2)sc1C(=O)O	IC50	-	NS3 ATPase	Hepatitis C virus	-	5–20 µM
COc1nc(Nc2ccc3[nH]ncc3c2)nc(N2CCC(C(N)=O)CC2)n1	inhibition	-	DNA polymerase	Hepatitis B virus	1 µg/mL	59%
O=C(Nc1ccc2[nH]ncc2c1)c1cc(NCCc2ccccn2)c(F)cc1F	inhibition	-	Reverse transcriptase	Hepatitis B virus	0.1 µg/mL	23%
O=C(O)[C@@H](Cc1ccccc1)N(Cc1cccs1)C(=O)c1ccc(Cl)cc1Cl	IC50	-	RNA-dependent RNA polymerase	Hepatitis C virus	-	<5 µM
O=C(O)CCC(=O)N[C@H](C(=O)N[C@@H](CCC(=O)O)C(=O)N[C@@H](CCC(=O)O)C(=O)NC1(C(=O)O)CC1)C1CCCCC1	inhibition	-	Nonstructural protein 3 NTPase/helicase	Hepatitis C virus	167 µM	54%
CC[C@@H](C=O)NC(=O)[C@@H]1C[C@@H](OCc2ccccc2)CN1C(=O)[C@@H](NC(=O)[C@H](Cc1cccnc1)NC(=O)c1cnccn1)C(C)C	Ki	-	NS3 protease	Hepatitis C virus	-	>100 µM
O=C(O)CCCC(=O)N[C@@H](CCC(=O)O)C(=O)N[C@@H](CCC(=O)O)C(=O)N[C@@H](CS)C(=O)O	IC50	-	Nonstructural protein 3 NTPase/helicase	Hepatitis C virus	-	>16.7 µM
CN(C)CCNc1cc(C(=O)Nc2ccc3[nH]ncc3c2)c(F)cc1F	IC50	-	Reverse transcriptase	Hepatitis B virus	-	0.01–0.1 µg/mL
CSc1ncc(C(=O)NCc2cccnc2)c(Nc2ccc3cn[nH]c3c2)n1	IC50	-	Reverse transcription	Hepatitis B virus	-	<0.01 µg/mL
O=C(O)CCCC(=O)N[C@H](C(=O)N[C@@H](CCC(=O)O)C(=O)N[C@@H](CCC(=O)O)C(=O)N[C@@H](CS)C(=O)O)C1CCCCC1	inhibition	-	Nonstructural protein 3 NTPase/helicase	Hepatitis C virus	167 µM	94%
CC[C@H](NC(=O)[C@H](CC(C)C)NC(=O)[C@@H](NC(=O)[C@@H](NC(=O)c1cnccn1)C(C)C)C(C)C)C(=O)C(=O)NCc1ccccc1OC	Ki	-	NS3 protease	Hepatitis C virus	-	>100 µM
O=C(O)[C@H](Cc1ccccc1)N(Cc1cc(-c2ccc(Cl)c(F)c2)cs1)C(=O)c1ccc(Cl)cc1Cl	IC50	-	RNA-dependent RNA polymerase	Hepatitis C virus	-	<5 µM
Nc1ccn([C@H]2CS[C@@H](COP(=O)(O)OP(=O)(O)OP(=O)(O)O)O2)c(=O)n1	IC50	WILD TYPE	DNA polymerase	Hepatitis B virus	-	0.0075 µM
C=CC1CC1(NC(=O)[C@@H]1C[C@@H](Oc2cc(-c3ccccc3)nc3cc(OC)ccc23)CN1C(=O)[C@@H](NC(=O)CC1CC1)C(C)(C)C)C(=O)NS(=O)(=O)C1(C)CC1	IC50	BMS	NS3/NS4A protease	Hepatitis C virus	-	<0.05 µM
O=C(O)c1sc(-c2ccccc2)cc1NS(=O)(=O)Cc1cc(OCC(F)(F)F)ccc1OCC(F)(F)F	IC50	-	NS3 ATPase	Hepatitis C virus	-	5–20 µM
O=C(O)c1ccc2c(c1)nc(-c1ccc3ncc(-c4ccccc4)cc3c1)n2C1CCCCC1	inhibition	-	NS5B polymerase	Hepatitis C virus	100 µM	96.87%
CC(Cc1ccccn1)Nc1cc(C(=O)Nc2ccc3cn[nH]c3c2)c(F)cc1F	inhibition	-	Reverse transcriptase	Hepatitis B virus	0.1 µg/mL	35%
COc1ccc(-c2ccc(C(F)(F)F)cc2)c(-c2ccc3cc(-c4nc5cc(C(=O)O)ccc5n4C4CCCCC4)ccc3n2)c1	inhibition	-	NS5B polymerase	Hepatitis C virus	33 µM	98.82%
CN(C(=O)c1ccc(Cl)cc1Cl)[C@@H](Cc1ccccc1)C(=O)O	IC50	-	RNA-dependent RNA polymerase	Hepatitis C virus	-	5–20 µM
NC(=O)[C@H](Cc1cnc[nH]1)NC(=O)c1ccc2ccc(-c3nc4cc(C(=O)O)ccc4n3C3CCCCC3)cc2n1	inhibition	-	NS5B polymerase	Hepatitis C virus	100 µM	79.47%
C=CC1CC1(NC(=O)[C@@H]1C[C@@H](OC(=O)N2CCOCC2)CN1C(=O)[C@@H](NC(=O)OC(C)(C)C)C(C)(C)C)C(=O)NS(=O)(=O)C1CC1	IC50	BMS/H77C/J416S	NS3/NS4A protease	Hepatitis C virus	-	0.1–1 µM
C=C[C@H]1C[C@@]1(NC(=O)[C@@H]1C[C@@H](Oc2cc(-c3ccccc3)nc3cc(OC)ccc23)CN1C(=O)[C@@H](NC(=O)OC(C)(C)C)C(C)(C)C)C(=O)NS(=O)(=O)C1(CC2CCC2)CC1	IC50	BMS	NS3/NS4A protease	Hepatitis C virus	-	<0.05 µM
CSc1ncc(C(=O)N(C)CCO)c(Nc2ccc3cn[nH]c3c2)n1	IC50	-	Reverse transcription	Hepatitis B virus	-	~0.1 µg/mL
C=CC1CC1(NC(=O)[C@@H]1C[C@@H](OC(=O)Nc2cc(C)cc(C)c2)CN1C(=O)[C@@H](NC(=O)OC(C)(C)C)C(C)(C)C)C(=O)NS(=O)(=O)C1CC1	IC50	BMS/H77C/J416S	NS3/NS4A protease	Hepatitis C virus	-	<0.1 µM
CC(=O)N[C@H](C(=O)N[C@@H](CCC(=O)O)C(=O)N[C@@H](CCC(=O)O)C(=O)NC1(C(=O)O)CC1)C1CCCCC1	inhibition	-	Nonstructural protein 3 NTPase/helicase	Hepatitis C virus	167 µM	27%
COc1ccc(-c2ccc(F)c(Cl)c2)c(-c2ccc3cc(-c4nc5cc(C(=O)O)ccc5n4C4CCCCC4)ccc3n2)c1	inhibition	-	NS5B polymerase	Hepatitis C virus	100 µM	99.38%
CC(=O)N(Cc1cccc(C)c1)c1cc(-c2ccccc2)sc1C(=O)O	IC50	-	NS3 ATPase	Hepatitis C virus	-	5–20 µM
CC[C@@H](C=O)NC(=O)[C@@H]1C[C@@H](OCc2ccccc2)CN1C(=O)[C@@H](NC(=O)C(O)(c1ccccc1)c1ccccc1)C(C)C	Ki	-	NS3 protease	Hepatitis C virus	-	>100 µM
C=C[C@H]1C[C@@]1(NC(=O)[C@@H]1C[C@@H](Oc2cc(-c3ccccc3)nc3cc(OC)ccc23)CN1C(=O)[C@@H](NC(=O)OC(C)(C)C)C(C)(C)C)C(=O)NS(=O)(=O)C1(CC2CC2)CC1	IC50	BMS	NS3/NS4A protease	Hepatitis C virus	-	<0.05 µM
O=C(O)CCC(=O)N[C@H](C(=O)N[C@@H](CCC(=O)O)C(=O)N[C@@H](CCC(=O)O)C(=O)NC1(C(=O)O)CC1)C(c1ccccc1)c1ccccc1	inhibition	-	Nonstructural protein 3 NTPase/helicase	Hepatitis C virus	83.5 µM	22%
C=CCN(C(=O)c1ccc(Cl)cc1I)C(Cc1ccccc1)C(=O)O	IC50	-	RNA-dependent RNA polymerase	Hepatitis C virus	-	5–20 µM
C=CC1CC1(NC(=O)[C@@H]1C[C@@H](OC(=O)Nc2cc(C(C)=O)ccc2N2CCCCC2)CN1C(=O)[C@@H](NC(=O)OC(C)(C)C)C(C)(C)C)C(=O)NS(=O)(=O)C1CC1	IC50	BMS/H77C/J416S	NS3/NS4A protease	Hepatitis C virus	-	<0.1 µM
CNC(=O)c1cnc(SC)nc1Nc1ccc2cn[nH]c2c1	IC50	-	Reverse transcription	Hepatitis B virus	-	~0.01 µg/mL
CC[C@@H](C=O)NC(=O)[C@@H]1C[C@@H](OCc2ccccc2)CN1C(=O)[C@@H](NC(=O)c1c(C)noc1C)C(C)C	Ki	-	NS3 protease	Hepatitis C virus	-	>100 µM
O=C(c1ccc(-c2ccc(Cl)cc2)c(-c2ccc3cc(-c4nc5ccccc5n4C4CCCCC4)ccc3n2)c1)N1CCCC1	inhibition	-	NS5B polymerase	Hepatitis C virus	33 µM	91.13%
C=CC1CC1(NC(=O)[C@@H]1C[C@@H](OC(=O)Nc2ccccc2C(C)=O)CN1C(=O)[C@@H](NC(=O)OC(C)(C)C)C(C)(C)C)C(=O)NS(=O)(=O)C1CC1	IC50	BMS/H77C/J416S	NS3/NS4A protease	Hepatitis C virus	-	<0.1 µM
O=C(O)[C@H](Cc1ccccc1)N(Cc1cccc(Br)c1)C(=O)Cc1ccc(Cl)cc1Cl	IC50	-	RNA-dependent RNA polymerase	Hepatitis C virus	-	5–20 µM
CC(C)C[C@H](NC(=O)CCC(=O)O)C(=O)N[C@@H](CCC(=O)O)C(=O)N[C@@H](CCC(=O)O)C(=O)NC1(C(=O)O)CC1	inhibition	-	Nonstructural protein 3 NTPase/helicase	Hepatitis C virus	83.5 µM	14%
COc1ccc(-c2ccc(C(=O)O)cc2)c(-c2ccc3cc(-c4nc5cc(C(=O)O)ccc5n4C4CCCCC4)ccc3n2)c1	inhibition	-	NS5B polymerase	Hepatitis C virus	100 µM	100%
O=C(O)[C@H](Cc1ccccc1)N(Cc1cnc(N2CCN(c3ccccc3)CC2)s1)C(=O)c1ccc(Cl)cc1Cl	IC50	-	RNA-dependent RNA polymerase	Hepatitis C virus	-	5–20 µM
O=C(Nc1ccc2cn[nH]c2c1)c1cc(NCCO)c(F)cc1F	inhibition	-	Reverse transcriptase	Hepatitis B virus	1 µg/mL	53%
COc1nc(Nc2ccc3cn[nH]c3c2)nc(N2CCN(C)CC2)n1	inhibition	-	DNA polymerase	Hepatitis B virus	0.01 µg/mL	10%
Nc1ccc(-c2ccc3cc(-c4nc5cc(C(=O)O)ccc5n4C4CCCCC4)ccc3n2)cc1Br	inhibition	-	NS5B polymerase	Hepatitis C virus	100 µM	98.17%
COc1nc(Nc2ccc3cn[nH]c3c2)nc(NN2CCOCC2)n1	inhibition	-	DNA polymerase	Hepatitis B virus	0.01 µg/mL	27%
COc1cccc(CN(C(=O)c2ccc(C)cc2)c2cc(-c3ccccc3)sc2C(=O)O)c1	IC50	-	NS3 ATPase	Hepatitis C virus	-	<5 µM
C=CC1C[C@@]1(NC(=O)[C@@H]1C[C@@H](Oc2cc(-c3ccccc3)nc3cc(OC)ccc23)CN1C(=O)[C@@H](NC(=O)[C@@H]1COc2ccccc2O1)C(C)(C)C)C(=O)NS(=O)(=O)C1(Cc2ccccc2)CC1	IC50	BMS	NS3/NS4A protease	Hepatitis C virus	-	0.5–5 µM
Cc1ccccc1S(=O)(=O)Nc1cc(-c2ccccc2C(=O)O)sc1C(=O)O	IC50	-	NS3 ATPase	Hepatitis C virus	-	5–20 µM
O=C(Nc1ccc2cn[nH]c2c1)c1cc(NCCCn2ccnc2)c(F)cc1F	IC50	-	Reverse transcriptase	Hepatitis B virus	-	0.1–1 µg/mL
O=C(O)CCCC(=O)N[C@H](C(=O)N[C@@H](CCC(=O)O)C(=O)N[C@@H](CCC(=O)O)C(=O)NC1(C(=O)O)CC1)C(c1ccccc1)c1ccccc1	inhibition	-	Nonstructural protein 3 NTPase/helicase	Hepatitis C virus	83.5 µM	27%
COc1nc(Nc2ccc3[nH]ncc3c2)nc(NN2CCN(C)CC2)n1	inhibition	-	DNA polymerase	Hepatitis B virus	0.1 µg/mL	22%
CC[C@@H](C=O)NC(=O)[C@@H]1C[C@@H](OC(=O)Nc2ccc(C(C)=O)cc2)CN1C(=O)[C@@H](NC(=O)[C@@H](NC(=O)c1cnccn1)C(C)C)C(C)C	Ki	-	NS3 protease	Hepatitis C virus	-	1–100 µM
O=C(O)C(Cc1ccccc1)N(Cc1ccc(-c2cccc(C(F)(F)F)c2)s1)C(=O)c1ccc(Cl)cc1I	IC50	-	RNA-dependent RNA polymerase	Hepatitis C virus	-	<5 µM
CCNC(=O)c1cnc(SC)nc1Nc1ccc2[nH]ncc2c1	IC50	-	Reverse transcription	Hepatitis B virus	-	~0.1 µg/mL
COc1nc(Nc2ccc3cn[nH]c3c2)nc(N2CCN(CCO)CC2)n1	inhibition	-	Nonstructural protein 5B	Hepatitis C virus	1 µg/mL	54%
CCC[C@]1(CC(=O)O)OCCc2c1[nH]c1c(C)ccc(C#N)c21	IC50	320-2-1 genotype 1B	NS5B polymerase	Hepatitis C virus	-	0.5 µM
C=CC1CC1(NC(=O)[C@@H]1C[C@@H](Oc2cc(-c3ccccc3)nc3cc(OC)ccc23)CN1C(=O)[C@@H](NC(=O)OC(C)(C)C)C(C)(C)C)C(=O)NS(=O)(=O)C1(C(=O)Nc2ccccc2)CC1	IC50	BMS	NS3/NS4A protease	Hepatitis C virus	-	<0.05 µM

Percent inhibition refers to the dose given; in toxicity tests it is the harm to the cells. Blank or dashed fields: not listed here. ICn: concentration for n% inhibition. Two numbers with a dash give a range or band.